Paper PMC12706794, “Identification and Characterization of a Small-Molecule Inhibitor of the Pseudomonas aeruginosa SOS Response” (ACS Infectious Diseases, 2025)
The exact form of at least one protein or probe is not confirmed. At least one verdict rests on a figure or table, not on a statement of the authors.

Target: LexAPa S125A (uncleavable mutant) (Pseudomonas aeruginosa ATCC 27853) (UniProt P37452)
Test: EMSA
Conditions: 8 uM LexA, 1 uM DNA, recombinant protein

Sequence: GATGCCTGCGGATACTGTATATATATACAGTATCAATTCTGGCT (double strand) [SOS-box dsDNA (AT-repeat)]
- binding result (50 uM A12, 10% DMSO): binds
- binding result (100 uM A12, 10% DMSO): binds
